Results of unrelated studies side by side (data: NIAID ChemDB).

All rows: tests in culture

Lines come from different laboratories, so protocols vary.

{"compound": "C[C@H]1CN(c2ccc(CNC(=O)c3c(C(F)(F)F)nc4ccc(Cl)cn34)cc2F)CCN1c1ccc(OC(F)(F)F)cc1", "method": "fluorescence", "organism": "Mycobacterium avium", "dose": "0.032 µM", "read-out": "inhibition", "value": "85%"}
{"compound": "CCCCCCCCCCC(CCCCCCCCCC)NC(=O)NC(CCC(=O)O)(CCC(=O)O)CCC(=O)O", "organism": "Mycobacterium marinum", "read-out": "MIC", "strain": "ATCC 927", "value": "216 µg/mL"}
{"compound": "CCc1nc2ccc(Cl)cn2c1C(=O)NCc1ccc(-n2cc3c(n2)CN(c2ccc(OC(F)(F)F)cc2)C3)c(F)c1.Cc1ccc(S(=O)(=O)O)cc1", "method": "fluorescence", "organism": "Mycobacterium avium", "dose": "0.0046 µM", "read-out": "inhibition", "value": "85%"}
{"compound": "Cc1ccn2c(C(=O)NCc3ccc(N4CCNC(=O)C4)cc3)cnc2c1", "method": "fluorescence", "organism": "Mycobacterium ulcerans", "read-out": "MIC50", "value": ">10 µg/mL"}
{"compound": "COc1ccc(-c2c(-c3ccc(O)cc3O)n[nH]c2C(F)(F)F)cc1", "method": "visual reading", "organism": "Mycobacterium marinum", "read-out": "MIC", "value": ">50 µg/mL"}
{"compound": "CCCCCCCCCCCCC(CCCCCCCCCCCC)NC(=O)NC(CCC(=O)O)(CCC(=O)O)CCC(=O)O", "organism": "Mycobacterium marinum", "read-out": "MIC", "strain": "ATCC 927", "value": "27 µg/mL"}
{"compound": "Fc1ccc2c(Nc3ccc(Oc4ccc(OC(F)(F)F)cc4)cc3)ncnc2c1", "method": "luminescence", "organism": "Mycobacterium bovis BCG", "read-out": "MIC50", "value": ">20 µM"}
{"compound": "CCOc1ccc(-c2n[nH]c(C)c2-c2ccc(Cl)cc2)c(O)c1", "method": "visual reading", "organism": "Mycobacterium marinum", "read-out": "MIC", "value": ">50 µg/mL"}
{"compound": "CCCCCCCCCCCCCCNC(=O)NC(CCC(=O)O)(CCC(=O)O)CCC(=O)O", "organism": "Mycobacterium chelonae", "read-out": "MIC", "strain": "EO-P-1", "value": "18 µg/mL"}
{"compound": "CO[C@H]1/C=C/O[C@@]2(C)Oc3c(C)c(O)c4c(=O)c(c5oc6cc(N7CCN(CC(C)C)CC7)cc(=O)c6nc5c4c3=C2O)NC(=O)/C(C)=C\\C=C\\[C@H](C)[C@H](O)[C@@H](C)[C@@H](O)[C@@H](C)[C@H](OC(C)=O)[C@@H]1C", "organism": "Mycobacterium ulcerans", "read-out": "MBC", "strain": "Isolate 842", "value": "0.012 µg/mL"}
{"compound": "Fc1cc(Nc2ncnc3ccccc23)ccc1N1CCc2sccc2C1", "method": "luminescence", "organism": "Mycobacterium bovis BCG", "read-out": "MIC50", "value": ">20 µM"}
{"compound": "Cc1nc2ccc(Cl)cn2c1C(=O)NCc1ccc(OC(F)(F)F)cc1", "method": "fluorescence", "organism": "Mycobacterium ulcerans", "read-out": "MIC50", "value": "0.1–1 µg/mL"}
{"compound": "Fc1ccc2c(Nc3ccc(OC4CCN(c5ccc(C(F)(F)F)cc5)CC4)cc3)ncnc2c1", "method": "luminescence", "organism": "Mycobacterium bovis BCG", "read-out": "MIC50", "value": ">10 µM"}
{"compound": "O=C(NNC(=O)c1ccncc1)Nc1ccc(Cl)c(C(F)(F)F)c1", "conditions": "14 d", "method": "broth dilution", "organism": "Mycobacterium kansasii", "read-out": "MIC100", "strain": "My 235/80", "value": "125 µM"}
{"compound": "C=CCNC(=O)c1c(C)nc2ccccn12", "method": "fluorescence", "organism": "Mycobacterium ulcerans", "read-out": "MIC50", "value": ">10 µg/mL"}
{"compound": "Cc1nn2cc(F)ccc2c1C(=O)NCc1ccc(N2CCN(c3ccc(OC(F)(F)F)cc3)[C@@H](C)C2)c(F)c1.Cl", "method": "fluorescence", "organism": "Mycobacterium avium", "dose": "0.059 µM", "read-out": "inhibition", "value": "85%"}
{"compound": "COc1ccc(CCNc2ncnc3ccsc23)cc1", "method": "luminescence", "organism": "Mycobacterium bovis BCG", "read-out": "MIC50", "value": ">50 µM"}
{"compound": "CCc1nc2cc(F)ccn2c1C(=O)NCc1ccc(N2CCN(c3ccc(OC(F)(F)F)cc3)[C@H]3CCCC[C@@H]32)c(F)c1.Cl", "method": "fluorescence", "organism": "Mycobacterium avium", "dose": "0.87 µM", "read-out": "inhibition", "value": "85%"}
{"compound": "Fc1cc(Nc2nnc(-c3ccncc3)o2)ccc1Br", "conditions": "21 d", "method": "broth dilution", "organism": "Mycobacterium kansasii", "read-out": "MIC100", "strain": "My 6509/96", "value": ">125 µM"}
{"compound": "Cc1ccc2nc(Cl)c(C(=O)NCc3ccc(N4CCN(c5ccc(OC(F)(F)F)cc5)[C@@H](C)C4)c(F)c3)n2c1.Cl", "method": "fluorescence", "organism": "Mycobacterium avium", "dose": "0.0036 µM", "read-out": "inhibition", "value": "85%"}
{"compound": "COc1ccc(CNC(=O)c2c(Cl)nc3ccccn23)cn1", "method": "fluorescence", "organism": "Mycobacterium ulcerans", "read-out": "MIC50", "value": "1–10 µg/mL"}
{"compound": "CCCC[C@H]1CN(c2ccc(CNC(=O)c3c(CC)nc4cc(F)ccn34)cc2F)CCN1c1ccc(OC(F)(F)F)cc1.Cl", "method": "fluorescence", "organism": "Mycobacterium avium", "dose": "0.0044 µM", "read-out": "inhibition", "value": "85%"}
{"compound": "Cc1nc(Nc2ccc(Oc3ccc(C(F)(F)F)cc3)cc2)c2ccc(F)cc2n1", "method": "luminescence", "organism": "Mycobacterium bovis BCG", "read-out": "MIC50", "value": ">20 µM"}
{"compound": "CC(C)N=C(N)/N=C(\\N)NOCCCOc1cc(Cl)c(Cl)cc1Cl", "organism": "Mycobacterium avium complex", "read-out": "MIC", "strain": "516", "value": "32 µg/mL"}
{"compound": "CN(C)c1ccc(CNc2ncnc3ccccc23)cc1", "method": "luminescence", "organism": "Mycobacterium bovis BCG", "read-out": "MIC50", "value": ">20 µM"}
{"compound": "O=c1oc2ccc(F)cc2c(=S)n1-c1cccc(F)c1", "conditions": "14 d", "organism": "Mycobacterium kansasii", "read-out": "MIC", "strain": "My 235/80", "value": "16 µM"}
{"compound": "CCc1nc(N)nc(N)c1-c1ccc(Cl)cc1", "organism": "Mycobacterium avium complex", "read-out": "MIC", "strain": "DW29", "value": "16 µg/mL"}
{"compound": "NNC(=O)c1ccncc1", "conditions": "14 d", "method": "broth dilution", "organism": "Mycobacterium kansasii", "read-out": "MIC100", "strain": "My 6509/96", "value": "8 µM"}
{"compound": "CCCCCCCCCC(CCCCCCCCC)NC(=O)NC(CCC(=O)O)(CCC(=O)O)CCC(=O)O", "organism": "Mycobacterium marinum", "read-out": "MIC", "strain": "ATCC 927", "value": "18 µg/mL"}
{"compound": "COc1ccc2c(Nc3ccc(Oc4ccc(OC(F)(F)F)cc4)cc3)ncnc2c1", "method": "luminescence", "organism": "Mycobacterium bovis BCG", "read-out": "MIC50", "value": ">20 µM"}
{"compound": "Cc1ccn2c(C(=O)NCc3ccc(N4CCC(c5ccc(OC(F)(F)F)cc5)CC4)cc3F)c(C)nc2c1.Cl", "method": "fluorescence", "organism": "Mycobacterium avium", "dose": "0.33 µM", "read-out": "inhibition", "value": "85%"}
{"compound": "O=C(NNC(=O)c1ccncc1)Nc1ccc(Br)c(F)c1", "conditions": "14 d", "method": "broth dilution", "organism": "Mycobacterium kansasii", "read-out": "MIC100", "strain": "My 6509/96", "value": "125 µM"}
{"compound": "Cc1ccn2c(C(=O)NCc3ccc(N4CCN(c5ccc(OC(F)(F)F)cc5)[C@@H](C)C4)c(F)c3)c(C)nc2c1", "method": "fluorescence", "organism": "Mycobacterium avium", "dose": "0.021 µM", "read-out": "inhibition", "value": "85%"}
{"compound": "Cc1ccc2oc(=O)n(-c3ccc(Cl)cc3)c(=S)c2c1", "conditions": "14 d", "organism": "Mycobacterium kansasii", "read-out": "MIC", "strain": "My 235/80", "value": "2 µM"}
{"compound": "CCOc1cccc(CCNc2ncnc3ccccc23)c1", "method": "luminescence", "organism": "Mycobacterium bovis BCG", "read-out": "MIC50", "value": ">20 µM"}
{"compound": "O=c1oc2ccc(Br)cc2c(=S)n1-c1ccccc1", "conditions": "21 d", "organism": "Mycobacterium kansasii", "read-out": "MIC", "strain": "6509/96", "value": "2 µM"}
{"compound": "CCCCCCCCc1ccc(NC(=O)NNC(=O)c2ccncc2)cc1", "conditions": "14 d", "method": "broth dilution", "organism": "Mycobacterium kansasii", "read-out": "MIC100", "strain": "My 235/80", "value": "500 µM"}
{"compound": "COc1ccc(-c2n[nH]c(C(F)(F)F)c2-c2ccc(Br)cc2)c(O)c1", "method": "visual reading", "organism": "Mycobacterium marinum", "read-out": "MIC", "value": ">50 µg/mL"}
{"compound": "Cc1ccc(Oc2ccc(Nc3ncnc4ccccc34)cc2)cc1", "method": "luminescence", "organism": "Mycobacterium bovis BCG", "read-out": "MIC50", "value": ">20 µM"}
{"compound": "FC(F)(F)c1ccc(-n2c(=S)oc3ccc(Cl)cc3c2=S)cc1", "conditions": "21 d", "organism": "Mycobacterium kansasii", "read-out": "MIC", "strain": "6509/96", "value": "16 µM"}
{"compound": "Fc1ccc(Oc2ccc(CNc3ncnc4ccsc34)cc2)cc1", "method": "luminescence", "organism": "Mycobacterium bovis BCG", "read-out": "MIC50", "value": ">20 µM"}
{"compound": "CCCCCCCCCCCCCCCCOC(=O)NC(C)(CCC(=O)O)CCC(=O)O", "organism": "Mycobacterium abscessus", "read-out": "MIC", "strain": "AAy-P-1", "value": "4.5 µg/mL"}
{"compound": "CCOc1ccc(-c2n[nH]c(C(F)(F)F)c2-c2ccc(OC)cc2)c(O)c1", "method": "visual reading", "organism": "Mycobacterium marinum", "read-out": "MIC", "value": "50 µg/mL"}
{"compound": "Fc1ccc(N2CCN(c3ccc(Nc4ncnc5cc(F)ccc45)cc3)CC2)cc1", "method": "luminescence", "organism": "Mycobacterium bovis BCG", "read-out": "MIC50", "value": ">10 µM"}
{"compound": "CCCCCCCCCCCCCCCCCCCCC(=O)NC(C)(CCC(=O)O)CCC(=O)O", "organism": "Mycobacterium marinum", "read-out": "MIC", "strain": "ATCC 927", "value": "14 µg/mL"}
{"compound": "O=C(NCc1ccc(F)cc1)c1c(Cl)nc2ccccn12", "method": "fluorescence", "organism": "Mycobacterium ulcerans", "read-out": "MIC50", "value": "0.1–1 µg/mL"}
{"compound": "Cc1ccc2oc(=S)n(-c3ccc(C(F)(F)F)cc3)c(=S)c2c1", "conditions": "21 d", "organism": "Mycobacterium kansasii", "read-out": "MIC", "strain": "My 235/80", "value": "16 µM"}
{"compound": "FC(F)(F)c1cccc(Oc2ncnc3ccccc23)c1", "method": "luminescence", "organism": "Mycobacterium bovis BCG", "read-out": "MIC50", "value": ">20 µM"}
{"compound": "S=c1oc2ccc(Br)cc2c(=S)n1-c1ccccc1", "conditions": "21 d", "organism": "Mycobacterium kansasii", "read-out": "MIC", "strain": "6509/96", "value": "4 µM"}
{"compound": "CC(C)Oc1ccc(-c2ccc(Nc3ncnc4cc(F)ccc34)cc2)cc1", "method": "luminescence", "organism": "Mycobacterium bovis BCG", "read-out": "MIC50", "value": ">10 µM"}
{"compound": "O=c1oc2ccc(Br)cc2c(=S)n1-c1ccc(Cl)c(Cl)c1", "conditions": "21 d", "organism": "Mycobacterium kansasii", "read-out": "MIC", "strain": "My 235/80", "value": "8 µM"}
{"compound": "CCCCCCCCCCCCCCCCCCOC(=O)NC(C)(CCC(=O)O)CCC(=O)O", "organism": "Mycobacterium chelonae", "read-out": "MIC", "strain": "EO-P-1", "value": "69 µg/mL"}
{"compound": "FS(F)(F)(F)(F)c1ccc(CNc2ncnc3ccoc23)cc1", "method": "luminescence", "organism": "Mycobacterium bovis BCG", "read-out": "MIC50", "value": ">20 µM"}
{"compound": "COc1ccc2oc(=S)n(-c3cccc(Cl)c3)c(=S)c2c1", "conditions": "14 d", "organism": "Mycobacterium kansasii", "read-out": "MIC", "strain": "My 235/80", "value": "16 µM"}
{"compound": "Clc1ccc(Nc2nnc(-c3ccncc3)o2)cc1Cl", "conditions": "7 d", "method": "broth dilution", "organism": "Mycobacterium kansasii", "read-out": "MIC100", "strain": "My 235/80", "value": ">125 µM"}
{"compound": "FC(F)(F)Oc1ccc(CNc2ncnc3ccccc23)cc1", "method": "luminescence", "organism": "Mycobacterium bovis BCG", "read-out": "MIC50", "value": ">20 µM"}
{"compound": "O=c1oc2ccc(F)cc2c(=S)n1-c1ccccc1", "conditions": "14 d", "organism": "Mycobacterium kansasii", "read-out": "MIC", "strain": "6509/96", "value": "0.5 µM"}
{"compound": "CO[C@H]1/C=C/O[C@@]2(C)Oc3c(C)c(O)c4c(O)c(c5c(c4c3C2=O)NC2(CCN(CC(C)C)CC2)N=5)=NC(=O)/C(C)=C\\C=C\\[C@H](C)[C@H](O)[C@@H](C)[C@@H](O)[C@@H](C)[C@H](OC(C)=O)[C@@H]1C", "organism": "Mycobacterium avium intracellulare", "read-out": "MIC", "strain": "953", "value": "0.5 µg/mL"}
{"compound": "Fc1ccc(Oc2ccc(CNc3ncnc4ccccc34)cc2)cc1", "method": "luminescence", "organism": "Mycobacterium bovis BCG", "read-out": "MIC50", "value": ">20 µM"}

Two numbers with a dash give a range or band. A number after MIC or MFC names an inhibition level or a share of isolates. Percent inhibition refers to the dose given; in toxicity tests it is the harm to the cells.